Results of unrelated studies side by side (data: NIAID ChemDB).

Common to all: enzyme or target tests; species: HIV-1; protein: Reverse transcriptase; measure: IC50

Blank or dashed fields: not listed here. Lines come from different laboratories, so protocols vary. a–b is a range or a potency band. ICn is the concentration giving n% inhibition.

structure,strain or isolate,mutations,read by,value
Cc1cccc2c1nc(-c1cccnc1)n2Cc1c(F)cccc1F,-,-,-,>10 µM
Cc1cn([C@H]2C=C[C@@H](COP(=O)(O)OP(=O)(O)OP(=O)(O)O)O2)c(=O)[nH]c1=O,-,RT-E138A,nucleotide incorporation / radiometric,0.16 µM
O=C(CSc1nnnn1-c1c(Cl)cccc1Cl)Nc1ccccc1[N+](=O)[O-],-,RT-K103N,-,0.04 µM
COc1ccc(C(=O)OC[C@H](OC(=O)c2ccc(OC)cc2)[C@@H](COC(=O)c2ccc(OC)cc2)OC(=O)c2ccc(OC)cc2)cc1,-,-,nucleotide incorporation,>25 µM
CC1C(=O)Nc2ccc(Cl)cc2S(=O)(=O)N1Cc1c(F)cccc1F,-,-,nucleotide incorporation / radiometric,0.25 µM
CCN1c2ncc(COc3cc[n+]([O-])c(C(F)(F)F)c3)cc2C(=O)N(C)c2ccc(Cl)nc21,-,RT-Y181C,nucleotide incorporation / radiometric,<1 µM
Cc1cc(C)c(-n2nnnc2SCC(=O)Nc2ccc(S(N)(=O)=O)cc2Cl)c(C)c1,-,RT-K103N,-,0.012 µM
CCN1c2ncc(COc3ccccc3O)cc2C(=O)N(C)c2ccc(Cl)nc21,-,RT-Y181C,nucleotide incorporation / radiometric,<1 µM
O=C(/C=C/c1ncc(-c2cccnc2)cn1)Nc1cc(-c2ccc3c(c2)CCCC3)[nH]n1,NL4-3,K103N,RT activity / nucleotide incorporation / luminescence,0.16 µM
CCC1(c2cccc(Cl)c2)Cc2ccccc2-n2cccc2C1=O,-,RT-K103N,nucleotide incorporation / radiometric,10 µM
Cc1cccc(-n2nnnc2SCC(=O)Nc2ccccc2[N+](=O)[O-])c1C,-,RT-K103N,-,0.18 µM
CCN1c2ncc(/C=C\c3ccccc3)cc2C(=O)N(C)c2cccnc21,-,RT-Y181C,nucleotide incorporation / radiometric,<1 µM
CCN1c2ncc(CCOc3ccc(CC(=O)O)c4ccccc34)cc2C(=O)N(C)c2ccc(F)nc21,WT,-,nucleotide incorporation / radiometric,<0.1 µM
CCc1c(Sc2ccccc2)n(COCc2ccccc2)c(=O)[nH]c1=O,RT-WT,-,RT activity,0.1 µM
CN1CCN(C(=O)COc2ccc(NC(=O)CSc3nnnn3-c3ccc(C(C)(C)C)cc3Cl)c(Cl)c2)CC1,-,RT-K103 Y181C,PicoGreen / fluorescence,<1 µM
C=C(CC(=O)O)c1ccc(OCCc2cnc3c(c2)C(=O)N(C)c2cccnc2N3CC)c2ccccc12,-,RT-K103N Y181C,nucleotide incorporation / radiometric,0.1–1 µM
CCN1c2ncc(COc3cccc4[nH]ccc34)cc2C(=O)N(C)c2ccc(Cl)nc21,WT,-,nucleotide incorporation / radiometric,<1 µM
CCC1(c2cccc(I)c2)Oc2ccccc2-n2cccc2C1=O,-,RT-Y181I,nucleotide incorporation / radiometric,>10 µM
CCN1c2ncc(CCOc3ccc(CC(=O)NN)c4ccccc34)cc2C(=O)N(C)c2ccc(NN)nc21,WT,-,nucleotide incorporation / radiometric,<0.1 µM
CCC1(c2ccc(CNc3cccc(F)c3)cc2)Oc2ccccc2-n2cccc2C1=O,-,RT-Y188L,nucleotide incorporation / radiometric,>10 µM
CCc1c([Se]c2ccccc2)n(COCc2ccccc2)c(=O)[nH]c1=O,-,RT-L100I,RT activity,0.4 µM
CCN1c2ncc(CCl)cc2C(=O)N(C)c2ccc(Cl)nc21,WT,-,nucleotide incorporation / radiometric,<1 µM
C[C@@H]1C(=O)Nc2ccc(Cl)cc2S(=O)(=O)N1Cc1c(F)cccc1F,-,-,nucleotide incorporation / radiometric,7.4 µM
COC(=O)[C@H](C)NP(=O)(OC[C@@H]1C=C[C@H](n2cc(C)c(=O)[nH]c2=O)O1)Oc1ccccc1,-,-,RT activity,>100 µM
CC1=CC(C2O[C@H](CO)C(N3C(=O)CS[C@H]3C3OC(n4ccc(=O)[nH]c4=O)[C@@H](O)[C@H]3O)[C@H]2O)C(=O)NC1=O,-,-,RT activity,>100 µM
Cc1cc(C)c(-n2nnnc2SCC(=O)Nc2ccc(Cl)cc2[N+](=O)[O-])c(C)c1,-,RT-K103N,-,0.012 µM
Cc1ccccc1-c1nc2ccccc2n1Cc1c(F)cccc1F,-,-,-,<10 µM
O=C(OC1C[C@@](O)(C(=O)O)CC(O)[C@@H]1O)c1cc(O)c(O)c(O)c1,-,-,-,>333 µg/mL
CCN1c2ncc(COc3cccnc3)cc2C(=O)N(C)c2ccc(Cl)nc21,-,RT-Y181C,nucleotide incorporation / radiometric,<1 µM
CCN1c2cc(C)c(C)cc2N(C)S(=O)(=O)c2cccnc21,-,-,nucleotide incorporation,22 µM
O=C(Nc1cc(-c2ccc3c(c2)CCCC3)[nH]n1)c1ccc(-c2cncnc2)s1,NL4-3,Y181C,RT activity / nucleotide incorporation / luminescence,0.32 µM
CC[C@H]1CN2CCc3cc(OC)c(OC)cc3[C@@H]2C[C@@H]1C[C@H]1NCCc2cc(OC)c(OC)cc21,NL4-3,-,RT activity / nucleotide incorporation / absorbance,10 µM
O=C(/C=C/c1ncc(-c2ccccc2)cn1)Nc1cc(-c2ccc3c(c2)CCCC3)[nH]n1,NL4-3,WT,RT activity / nucleotide incorporation / luminescence,0.21 µM
O=c1[nH]c(=O)n([C@H]2C[C@H](F)[C@@H](COP(=O)(O)OP(=O)(O)OP(=O)(O)O)O2)cc1Br,-,-,-,0.08 µM
CCC1(c2ccc(COc3cccnc3)cc2)Oc2ccccc2-n2cccc2C1=O,WT,-,nucleotide incorporation / radiometric,0.4 µM
CNc1ccc(Cl)cc1S(=O)(=O)c1ccccc1[N+](=O)[O-],-,RT-V106A,-,2 µM
Cc1cc(C)cc(CN2C(C)C(=O)Nc3ccc(Cl)cc3S2(=O)=O)c1,-,-,nucleotide incorporation / radiometric,0.69 µM
O=C(CSc1nnnn1-c1cc(F)ccc1Cl)Nc1ccccc1[N+](=O)[O-],-,-,-,0.01 µM
Cc1cc(C)c2nc(-c3c(F)cccc3F)n(Cc3c(F)cccc3F)c2c1,-,-,-,>10 µM
O=C(/C=C/c1ccc(O)c(O)c1)O[C@@H]1CC(O)(C(=O)O)C[C@@H](OC(=O)/C=C/c2ccc(O)c(O)c2)C1O,-,-,-,1.16 µM
C[C@H]1C(=O)Nc2ccc(Cl)cc2S(=O)(=O)N1Cc1c(F)cccc1F,-,-,nucleotide incorporation / radiometric,0.26 µM
COC(=O)C1(O)CC(O)C(OC(=O)/C=C/c2ccc(O)c(O)c2)C(OC(=O)/C=C/c2ccc(O)c(O)c2)C1,-,-,-,94 µM
CCN1c2ncc(CCOc3ccc(C(=O)O)c4ccccc34)cc2C(=O)N(C)c2cccnc21,WT,-,nucleotide incorporation / radiometric,<0.1 µM
CC1=CC(C2OC(CN3C(=O)CS[C@@H]3C3OC(n4cc(C)c(=O)[nH]c4=O)[C@@H](O)[C@H]3O)[C@@H](O)[C@H]2O)C(=O)NC1=O,-,-,RT activity,10.3 µM
O=C(Nc1nnc(-c2ccc3c(c2)CCCC3)o1)C1=COCCO1,NL4-3,Y181C,RT activity / nucleotide incorporation / luminescence,0.79 µM
Cc1cccc2c1nc(-c1ccc3ccccc3c1)n2Cc1c(F)cccc1F,-,-,-,>10 µM
CCN1c2ncc(CCOc3ccc(C(=O)O)c4c3CCCC4)cc2C(=O)N(C)c2cccnc21,WT,-,nucleotide incorporation / radiometric,<0.1 µM
O=C(O)C1=C[C@@H](OC(=O)c2cc(O)c(O)c(O)c2)[C@@H](OC(=O)c2cc(O)c(O)c(O)c2)[C@H](OC(=O)c2cc(O)c(O)c(O)c2)C1,-,-,-,0.1 µM
CCN1c2ncc(CCOc3ccc(CC(N)=O)c4ccccc34)cc2C(=O)N(C)c2cccnc21,-,RT-K103N Y181C,nucleotide incorporation / radiometric,<0.1 µM
CCN1c2ncc(CNc3cccc([N+](=O)[O-])c3)cc2C(=O)N(C)c2ccc(Cl)nc21,WT,-,nucleotide incorporation / radiometric,<1 µM
Fc1cccc(F)c1Cn1c(-c2c(F)cccc2F)nc2ccc(Cl)cc21,-,-,-,<10 µM
CCN1c2ncc(CCOc3ccc(C(=O)O)c4ccccc34)cc2C(=O)N(C)c2ccc(Cl)nc21,-,RT-K103N Y181C,nucleotide incorporation / radiometric,<0.1 µM

A second listing of 5 rows from above:

structure | strain or isolate | mutations | read by | value
O=C(/C=C/c1ncc(-c2ccccc2)cn1)Nc1cc(-c2ccc3c(c2)CCCC3)[nH]n1 | NL4-3 | WT | RT activity / nucleotide incorporation / luminescence | 0.21 µM
CCN1c2ncc(COc3ccccc3O)cc2C(=O)N(C)c2ccc(Cl)nc21 | - | RT-Y181C | nucleotide incorporation / radiometric | <1 µM
COC(=O)[C@H](C)NP(=O)(OC[C@@H]1C=C[C@H](n2cc(C)c(=O)[nH]c2=O)O1)Oc1ccccc1 | - | - | RT activity | >100 µM
Cc1ccccc1-c1nc2ccccc2n1Cc1c(F)cccc1F | - | - | - | <10 µM
CCC1(c2cccc(I)c2)Oc2ccccc2-n2cccc2C1=O | - | RT-Y181I | nucleotide incorporation / radiometric | >10 µM